Results from patent US20150259428.

Target: T1, CD20 (B-lymphocyte antigen CD20), human, expressed on the cell surface, human, P11836 1-297
T1 sequence: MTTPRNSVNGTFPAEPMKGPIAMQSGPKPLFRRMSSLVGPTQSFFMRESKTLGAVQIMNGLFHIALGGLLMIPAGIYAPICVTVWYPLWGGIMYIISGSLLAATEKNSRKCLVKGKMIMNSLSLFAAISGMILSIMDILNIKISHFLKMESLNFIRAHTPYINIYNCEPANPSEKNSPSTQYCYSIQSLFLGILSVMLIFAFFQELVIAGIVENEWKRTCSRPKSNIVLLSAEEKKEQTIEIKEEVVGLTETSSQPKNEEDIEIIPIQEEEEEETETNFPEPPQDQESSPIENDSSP

Substance	Kd
αCD20scFv1::SLT-1A version 1	82.5 nM
αCD20scFv1::SLT-1A version 2	101 nM
